For at least one entry, the source does not settle the construct or the ends of the probe.
Molecular target: PhoP (PhoPmas) WT, phosphorylated with acetyl phosphate (UniProt B1MHU9)
Assay: EMSA
Settings: acetyl phosphate-treated, binding enhanced vs unphosphorylated, […] (binding temperature not stated), recombinant protein, protein details: N-terminal His6 (pET14b), label: IRDye700 on both primers, probe letters rebuilt from the primers and the genome

“AGGTAATCTTCCCCCCAAAATTTACGATGCGCTGGATCTTCACTGTGAGCTTCCTGTGAGTTACTCACAGCAGATTGTCAGCCAACCGCGCCAGGTCGCCCTACAGTTGAGCC (double strand) [phoP promoter probe WT]”: binds.
